This assay deals with full-length wild-type human CR2 on transfected K562 erythroleukemia cells (human). As to the kind of experiment: flow cytometry, PE-conjugated gp350-biotin on CR2-transfected K562 cells.
The substance “EBV gp350 E201A (from UniProt P03200 1-470; P0ABD8 70-156) (ligand)” displayed a % binding relative to wild-type EBV gp350 of 103%.

On to “EBV gp350 E214A (from UniProt P03200 1-470; P0ABD8 70-156) (ligand)”, for which the % binding relative to wild-type EBV gp350 turned out to be 76.2%.

Substance “EBV gp350 D215A (from UniProt P03200 1-470; P0ABD8 70-156) (ligand)” registered a % binding relative to wild-type EBV gp350 of 86.5%.

These data come from US20120108492A1, “LIGAND-SPECIFIC NON-ANTIBODY COMPOUNDS THAT INHIBIT CR2 ACTIVATION AND METHODS OF USE THEREOF” (The Regents of the University of Colorado, priority 2008, published 2012).
